{"source": "PubChem BioAssay AID1259414 (Drosophila RNAi Screening Center, 2018)", "assay": "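Genome-wide screen for host control of endosymbiont load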 (primary screen)", "cells": "Drosophila JW18 cells infected with Wolbachia", "reagents": "long dsRNA against Drosophila genes, 0.25 µg dsRNA per well of a 384-well plate", "timing": "5 days", "treatment": "cells persistently infected with Wolbachia before knock-down; no added drug", "measurement": "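Imaged fluorescence in situ signal for Wolbachia 23S rRNA per DAPI-counted host cell, given as a robust z-score within each plate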", "direction": "Wolbachia per cell robust z: higher = more Wolbachia per host cell than the plate typical", "call rule": "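Active if absolute robust z reaches 1.5 in two or more of three replicates, leaving out multi- or no-target dsRNAs, genes unexpressed in JW18 and A1 wells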", "note": "In all, the deposit lists about 24,000 reagents; this is an unselected part of those with a known target gene and a result. Over the whole deposit, about 1,210 (5%) got an active call. 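Inactive calls also include excluded dsRNAs with several or no targets, genes unexpressed in JW18, and well A1, regardless of score.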 Names joined by + are all predicted targets of the reagent. Reagent sequences are not shown."}
{"predicted target": "CG43072 (GeneID 12798436)", "dsRNA": "DRSC11688", "Wolbachia per cell robust z, rep 1": 0.603, "Wolbachia per cell robust z, rep 2": 1.06, "Wolbachia per cell robust z, rep 3": 0.376, "activity call": "inactive"}
{"predicted target": "Porin2 (GeneID 34499)", "dsRNA": "DRSC02584", "Wolbachia per cell robust z, rep 1": -6.73, "Wolbachia per cell robust z, rep 2": -0.74, "Wolbachia per cell robust z, rep 3": -3.76, "activity call": "inactive"}
{"predicted target": "CG6788 (GeneID 32773)", "dsRNA": "DRSC20007", "Wolbachia per cell robust z, rep 1": -0.735, "Wolbachia per cell robust z, rep 2": -0.712, "Wolbachia per cell robust z, rep 3": 0.554, "activity call": "inactive"}
{"predicted target": "CG6788 (GeneID 32773)", "dsRNA": "DRSC24906", "Wolbachia per cell robust z, rep 1": -0.133, "Wolbachia per cell robust z, rep 2": -0.143, "Wolbachia per cell robust z, rep 3": -0.197, "activity call": "inactive"}
{"predicted target": "Pfdn6 (GeneID 40176)", "dsRNA": "DRSC10915", "Wolbachia per cell robust z, rep 1": -2.12, "Wolbachia per cell robust z, rep 2": -0.165, "Wolbachia per cell robust z, rep 3": 0.427, "activity call": "inactive"}
{"predicted target": "CG3277 (GeneID 33543)", "dsRNA": "DRSC00588", "Wolbachia per cell robust z, rep 1": -2.79, "Wolbachia per cell robust z, rep 2": -0.065, "Wolbachia per cell robust z, rep 3": 0.286, "activity call": "inactive"}
{"predicted target": "smal (GeneID 5740323)", "dsRNA": "DRSC02318", "Wolbachia per cell robust z, rep 1": -0.65, "Wolbachia per cell robust z, rep 2": 0.0717, "Wolbachia per cell robust z, rep 3": -0.236, "activity call": "inactive"}
{"predicted target": "smal (GeneID 5740323)", "dsRNA": "DRSC02319", "Wolbachia per cell robust z, rep 1": -1.72, "Wolbachia per cell robust z, rep 2": 0.545, "Wolbachia per cell robust z, rep 3": -0.11, "activity call": "inactive"}
{"predicted target": "smal (GeneID 5740323)", "dsRNA": "DRSC02320", "Wolbachia per cell robust z, rep 1": 0.0748, "Wolbachia per cell robust z, rep 2": -0.144, "Wolbachia per cell robust z, rep 3": -0.575, "activity call": "inactive"}
{"predicted target": "smal (GeneID 5740323)", "dsRNA": "DRSC02504", "Wolbachia per cell robust z, rep 1": -0.633, "Wolbachia per cell robust z, rep 2": 1.61, "Wolbachia per cell robust z, rep 3": -0.77, "activity call": "inactive"}
{"predicted target": "smal (GeneID 5740323)", "dsRNA": "DRSC22866", "Wolbachia per cell robust z, rep 1": -0.644, "Wolbachia per cell robust z, rep 2": -0.598, "Wolbachia per cell robust z, rep 3": -2.86, "activity call": "inactive"}
{"predicted target": "smal (GeneID 5740323)", "dsRNA": "DRSC26352", "Wolbachia per cell robust z, rep 1": 0.158, "Wolbachia per cell robust z, rep 2": -0.00938, "Wolbachia per cell robust z, rep 3": -1.48, "activity call": "inactive"}
{"predicted target": "CG42534 (GeneID 43298)", "dsRNA": "DRSC16072", "Wolbachia per cell robust z, rep 1": -1.56, "Wolbachia per cell robust z, rep 2": 0.366, "Wolbachia per cell robust z, rep 3": 1.11, "activity call": "inactive"}
{"predicted target": "CG42534 (GeneID 43298)", "dsRNA": "DRSC23131", "Wolbachia per cell robust z, rep 1": 0.235, "Wolbachia per cell robust z, rep 2": 0.488, "Wolbachia per cell robust z, rep 3": 0.557, "activity call": "inactive"}
{"predicted target": "CG42534 (GeneID 43298)", "dsRNA": "DRSC26096", "Wolbachia per cell robust z, rep 1": -1.54, "Wolbachia per cell robust z, rep 2": -0.016, "Wolbachia per cell robust z, rep 3": -0.725, "activity call": "inactive"}
{"predicted target": "CG32298 + CG32299", "dsRNA": "DRSC07980", "Wolbachia per cell robust z, rep 1": 0.0318, "Wolbachia per cell robust z, rep 2": 2.58, "Wolbachia per cell robust z, rep 3": 0.675, "activity call": "inactive"}
{"predicted target": "CG32298 + CG32299", "dsRNA": "DRSC22354", "Wolbachia per cell robust z, rep 1": 0.119, "Wolbachia per cell robust z, rep 2": -0.932, "Wolbachia per cell robust z, rep 3": -0.463, "activity call": "inactive"}
{"predicted target": "CG32298 + CG32299", "dsRNA": "DRSC25827", "Wolbachia per cell robust z, rep 1": -0.915, "Wolbachia per cell robust z, rep 2": 1.78, "Wolbachia per cell robust z, rep 3": 0.0925, "activity call": "inactive"}
{"predicted target": "thr (GeneID 37042)", "dsRNA": "DRSC07706", "Wolbachia per cell robust z, rep 1": 1.47, "Wolbachia per cell robust z, rep 2": 2.23, "Wolbachia per cell robust z, rep 3": 3.91, "activity call": "active"}
{"predicted target": "Ugt316A1 (GeneID 40079)", "dsRNA": "DRSC10376", "Wolbachia per cell robust z, rep 1": -0.502, "Wolbachia per cell robust z, rep 2": 0.163, "Wolbachia per cell robust z, rep 3": 0.566, "activity call": "inactive"}
{"predicted target": "Srp54k (GeneID 38593)", "dsRNA": "DRSC11289", "Wolbachia per cell robust z, rep 1": 2.53, "Wolbachia per cell robust z, rep 2": 0.991, "Wolbachia per cell robust z, rep 3": 1.7, "activity call": "active"}
{"predicted target": "Srp54k (GeneID 38593)", "dsRNA": "DRSC41411", "Wolbachia per cell robust z, rep 1": 0.987, "Wolbachia per cell robust z, rep 2": 1.53, "Wolbachia per cell robust z, rep 3": 0.293, "activity call": "inactive"}
{"predicted target": "Acadvl (GeneID 37217)", "dsRNA": "DRSC07022", "Wolbachia per cell robust z, rep 1": -0.495, "Wolbachia per cell robust z, rep 2": -0.413, "Wolbachia per cell robust z, rep 3": 0.0555, "activity call": "inactive"}
{"predicted target": "Acadvl (GeneID 37217)", "dsRNA": "DRSC26484", "Wolbachia per cell robust z, rep 1": -1.08, "Wolbachia per cell robust z, rep 2": 0.157, "Wolbachia per cell robust z, rep 3": 0.122, "activity call": "inactive"}

A portion of the results above, as a working copy:
{"predicted target": "CG32298 + CG32299", "dsRNA": "DRSC22354", "Wolbachia per cell robust z, rep 1": 0.119, "Wolbachia per cell robust z, rep 2": -0.932, "Wolbachia per cell robust z, rep 3": -0.463, "activity call": "inactive"}
{"predicted target": "CG32298 + CG32299", "dsRNA": "DRSC25827", "Wolbachia per cell robust z, rep 1": -0.915, "Wolbachia per cell robust z, rep 2": 1.78, "Wolbachia per cell robust z, rep 3": 0.0925, "activity call": "inactive"}
{"predicted target": "thr (GeneID 37042)", "dsRNA": "DRSC07706", "Wolbachia per cell robust z, rep 1": 1.47, "Wolbachia per cell robust z, rep 2": 2.23, "Wolbachia per cell robust z, rep 3": 3.91, "activity call": "active"}
